Results of unrelated studies side by side (data: NIAID ChemDB).

All rows: growth or infection tests; species: HIV-1; measure: EC50

Lines come from different laboratories, so protocols vary.

Cc1cn([C@H]2C[C@H](N=[N+]=[N-])[C@@H](CO)O2)c(=O)[nH]c1=O ; strain: IIIB ; cell line: C8166 ; read by: MTT ; result: 0.0218 µM
Cc1cc(Br)cc(S(=O)(=O)c2cccc(N)c2C#N)c1 ; mutations: RT-G190A ; cell line: HeLa + HELA CD4+ ; read by: β-galactosidase ; result: 0.03 µM
Cc1cn([C@H]2C[C@H](N=[N+]=[N-])[C@@H](CO)O2)c(=O)[nH]c1=O ; strain: P022C RT D67N K70R T215F K219Q ; mutations: RT-D67N K70R T215F K219Q ; cell line: HT4 + HT4-6C ; read by: plaque count ; result: 1.4 µM
CNc1ncnc2c1ncn2[C@H]1O[C@@H](CO)C[C@H]1F ; cell line: PBM ; result: >100 µM
COc1ccc(-n2c(C)nnc2SCC(=O)Nc2ccc(C)cc2Cl)c2ccccc12 ; strain: NL4-3 ; mutations: RT-Y188L ; cell line: HeLa + HeLa-JC53 ; read by: luciferase ; result: 0.24 µM
Cc1cn([C@H]2C[C@H](N=[N+]=[N-])[C@@H](CO)O2)c(=O)[nH]c1=O ; strain: X267-5 Clinical isolate ZDV-resistant ; mutations: RT-M41L F116S T215Y ; cell line: PBMC ; read by: p24 ; result: 0.6 µM
Cc1ccc(NC(=O)CSc2nnc(C)n2-c2c(C)ccc3ccccc23)c(Cl)c1 ; strain: NL4-3 ; mutations: RT-Y188L ; cell line: HeLa + HeLa-JC53 ; read by: luciferase ; result: 0.2 µM
CCn1nc(Cc2ccc(OC(F)(F)F)cc2)cc1C1CCN(C[C@H]2CN([C@@H](C(=O)O)C(C)(C)C)C[C@@H]2c2cccc(F)c2)CC1 ; strain: BaL ; cell line: HeLa ; read by: β-galactosidase ; result: <0.0012 µM
Nc1nc(NC2CC2)c2ncn([C@H]3C=C[C@@H](CO)C3)c2n1 ; strain: Recombinant ; mutations: RT-M41L A62V S68N G112S M184V ; cell line: HeLa ; read by: luciferase ; result: 0.99 µM
Cc1cn([C@H]2C[C@H](N=[N+]=[N-])[C@@H](CO)O2)c(=O)[nH]c1=O ; strain: CLADE B ; cell line: PBL ; read by: p24 ; result: 0.006 µM
Cc1ccc(NC(=O)CSc2nnc(C)n2-c2ccc(Cl)c3ccccc23)c(Cl)c1 ; strain: NL4-3 ; mutations: RT-Y188L ; cell line: HeLa + HeLa-JC53 ; read by: luciferase ; result: 0.32 µM
CC(=O)c1ccc(C)cc1NC(C(N)=O)c1c(Cl)cccc1Cl ; strain: IIIB ; mutations: RT-K103N ; cell line: MAGI ; read by: MTT ; result: 3.8 µM
Cc1cn([C@H]2C=C[C@@H](CO)O2)c(=O)[nH]c1=O ; strain: HXB2 ; mutations: RT-K103N ; cell line: MAGI (CCR5) + MAGI ; read by: β-galactosidase ; result: 1.2 µM
Cc1cn([C@H]2C=C[C@@H](CO)O2)c(=O)[nH]c1=O ; strain: HXB2 ; mutations: RT-V75T ; cell line: CD4+HELA + HeLa ; read by: plaque count ; result: 3.4 ± 0.37 µM
Cc1cc(O)cc(S(=O)(=O)c2cccc(N)c2C#N)c1 ; mutations: RT-K103N P225H ; cell line: HeLa + HELA CD4+ ; read by: β-galactosidase ; result: 5.5 µM
Nc1nc(=O)n([C@@H]2CS[C@H](CO)O2)cc1F ; strain: NL4-3 ; cell line: TZM-gfp ; read by: GFP ; result: 1 µM
Cc1ccnc2c1NC(=O)c1cccnc1N2C1CC1 ; strain: HXB2 ; mutations: RT-Y181C ; cell line: HT4 + HT4 LacZ-1 ; read by: plaque count ; result: 12.6 µM
O=c1[nH]cnc2c1ncn2C1CC[C@@H](CO)O1 ; mutations: 4xAZT ; cell line: Primary T lymphocytes ; read by: p24 / ELISA ; result: 35.5 µM
Cc1ccnc2c1NC(=O)c1cccnc1N2C1CC1 ; strain: IIIB ; cell line: CEMx174 + CEM ; read by: cytopathic effect / XTT ; result: 0.1 µM
Cc1ccc(-n2c(C)nnc2SCC(=O)Nc2ccccc2Br)cc1 ; strain: NL4-3 ; mutations: RT-K103N Y181C ; cell line: HeLa + HeLa-JC53 ; read by: luciferase ; result: 0.076 µM
Nc1nc(=O)n([C@@H]2CS[C@H](CO)O2)cc1F ; strain: HXB2 ; mutations: RT-Y181C M184V ; cell line: HT4 + HT4 LacZ-1 ; read by: plaque count ; result: >500 µM
Cc1ccc(NC(=O)CSc2nnc(C)n2-c2cccc3cccnc23)c(Cl)c1 ; strain: NL4-3 ; mutations: RT-Y188L ; cell line: HeLa + HeLa-JC53 ; read by: luciferase ; result: 5.7 µM
Nc1nc(=O)n([C@H]2O[C@@H](CO)C[C@H]2F)cc1Cl ; cell line: PBM ; result: >100 µM
CCn1nc(Cc2ccc(S(C)(=O)=O)cc2)cc1C1CCN(C[C@H]2CN([C@@H](C(=O)O)C3CCCCC3)C[C@@H]2c2cccc(F)c2)CC1 ; strain: BaL ; cell line: HeLa ; read by: β-galactosidase ; result: <0.0004 µM
CC(C)(C)NC(=O)[C@@H]1C[C@@H]2CCCC[C@@H]2CN1C[C@@H](O)[C@H](Cc1ccccc1)NC(=O)[C@H](CC(N)=O)NC(=O)c1ccc2ccccc2n1 ; strain: IIIB/LAI ; cell line: HUT-78/IIIB/LAI + HUT 78 ; read by: antigen ; result: >44 µM
O=c1[nH]cnc2c1ncn2[C@H]1CC[C@@H](CO)O1 ; strain: NL4-3 ; cell line: Primary T lymphocytes ; result: 0.402 µM
COC(=O)[C@H](C)NP(=O)(OC[C@@H]1C=C[C@H](n2cc(C)c(=O)[nH]c2=O)O1)Oc1ccc(Br)cc1 ; strain: G704-2 Clinical isolate ZDV-resistant ; mutations: RT-M41L D67N K70R L210W T215Y ; cell line: PBMC ; read by: p24 ; result: 0.0032 µM
OCCN1CCN(CC/C=C2/c3ccccc3Sc3ccc(C(F)(F)F)cc32)CC1 ; strain: IIIB ; cell line: MOLT-3 ; read by: p24 ; result: >2 µg/mL
Cc1ccnc2c1NC(=O)c1cccnc1N2C1CC1 ; strain: NL4-3 ; cell line: Jurkat cells ; result: 0.09 µM
Nc1ccn([C@H]2CC[C@@H](CO)O2)c(=O)n1 ; strain: RTMN (RT-M41L T215Y) ; mutations: RT-M41L T215Y ; cell line: HT4 + HT4 LacZ-1 ; read by: plaque count ; result: 0.71 µM
CC(=O)N1CCC(C(=O)N(CCCN2CCC(Cc3ccc(C(N)=O)cc3)CC2)c2ccc(C)c(Cl)c2)CC1 ; strain: R5X4 subtype B_2 recombinant ; cell line: U87 (CD4+ CXCR4+) + U87 ; read by: luciferase ; result: >19 µM
Nc1ccn([C@H]2CC[C@@H](CO)O2)c(=O)n1 ; strain: HXB2D (RT-K65R) ; mutations: RT-K65R ; cell line: CBMC ; read by: p24 ; result: 10.3 ± 1.2 µM
O=c1[nH]c(=O)n([C@@H]2O[C@@H](CO)C[C@H]2F)cc1F ; cell line: PBM ; result: >100 µM
Nc1ccn([C@H]2CC[C@@H](CO)O2)c(=O)n1 ; strain: HXB2 ; mutations: RT-L74V ; cell line: CD4+HELA + HeLa ; read by: plaque count ; result: 1.28 ± 0.17 µM
Nc1ncnc2c1ncn2[C@H]1O[C@@H](CO)C[C@H]1F ; cell line: PBM ; result: >100 µM
Cc1cc(Cl)cc(S(=O)(=O)c2cccc(N)c2C#N)c1 ; mutations: RT-K103N V108I ; cell line: HeLa + HELA CD4+ ; read by: β-galactosidase ; result: 33 µM
Cc1cn([C@H]2C=C[C@@H](CO)O2)c(=O)[nH]c1=O ; mutations: K65R ; cell line: Primary T lymphocytes ; read by: p24 / ELISA ; result: 1.5 µM
C[C@H](Cn1cnc2c(N)ncnc21)OCP(=O)(O)O ; strain: IIIB ; cell line: PBMC + H-PBMC ; result: 0.4 µM
CCCCCN1CC[C@@H](c2ccc(F)cc2)[C@H](COc2ccc3c(c2)OCCO3)C1 ; strain: IIIB ; cell line: MOLT-3 ; read by: p24 ; result: >4 µg/mL
CC[C@H](C)[C@H](C(=O)O)N1C[C@H](CN2CCC(c3cc(Cc4ccc(OCC(F)(F)F)cc4)nn3CC)CC2)[C@@H](c2cccc(F)c2)C1 ; strain: BaL ; cell line: HeLa ; read by: β-galactosidase ; setting: 50% human serum ; result: <0.033 µM
Cc1cc(C#N)cc(C)c1Oc1nc(Nc2ccc(C#N)cc2)nc(N)c1Br ; strain: 94ug 114.1.6 D (N348I) ; cell line: HEK293T ; read by: luciferase ; result: 0.00726 µM
O=C(O[C@@H]1O[C@@H]2COC(=O)c3cc(O)c(O)c(O)c3-c3c(cc(O)c(O)c3O)C(=O)O[C@H]([C@H]1O)[C@@H]2O)c1cc(O)c(O)c(O)c1 ; cell line: MAGI ; read by: β-galactosidase ; result: 0.38 µM
COc1ccc(OC[C@H]2CNCC[C@@H]2c2ccccc2)cc1 ; strain: IIIB ; cell line: MOLT-3 ; read by: syncytia ; result: >4 µg/mL
C#C[C@@]1(CO)C=C[C@H](n2cc(C)c(=O)[nH]c2=O)O1 ; strain: HXB2 ; mutations: RT-K65R ; cell line: MAGI (CCR5) + MAGI ; read by: β-galactosidase ; result: 1.3 µM
Nc1ccn([C@H]2CC[C@@H](CO)O2)c(=O)n1 ; strain: NL4-3 ; cell line: MDM ; result: 0.113 µM
S=C(NCCc1cccs1)Nc1ccc(Br)cn1 ; strain: 780-1 Clinical isolate NRTI-resistant ; mutations: RT-M41L D67N K70R T215F K219Q ; cell line: HT4 + HeLa ; read by: plaque count ; result: 0.015 µM
Nc1ncnc2c1ncn2CCOCP(=O)(O)O ; strain: IIIB ; cell line: PBMC + H-PBMC ; result: 2.5 µM
Cc1ccnc2c1NC(=O)c1cccnc1N2C1CC1 ; cell line: MT4-GFP ; read by: GFP ; result: 0.219 µM
Cn1c2ccccc2c2c1cc(C#N)c(=O)n2-c1ccc([N+](=O)[O-])cc1 ; strain: Recombinant ; mutations: RT-M41L S68N G112S M184V ; cell line: HeLa ; read by: luciferase ; result: 1.65 µM
CCn1nc(Cc2ccc(OC)c(C#N)c2)cc1C1CCN(C[C@H]2CN([C@@H](C(=O)O)C(C)C)C[C@@H]2c2cccc(F)c2)CC1 ; strain: BaL ; cell line: HeLa ; read by: β-galactosidase ; result: <0.0012 µM
COc1cc(C(F)(F)F)cc(S(=O)(=O)c2cccc(N)c2C#N)c1 ; mutations: RT-Y188C ; cell line: HeLa + HELA CD4+ ; read by: β-galactosidase ; result: 0.3 µM
Nc1nc2c(ncn2[C@H]2O[C@@H](CO)C[C@H]2F)c(=O)[nH]1 ; cell line: PBM ; result: >100 µM
Cc1nnc(C(=O)NC(C)(C)c2nc(C(=O)NCc3ccc(F)cc3)c(O)c(=O)n2C)o1 ; strain: NL4-3 ; cell line: Jurkat cells ; result: 0.003 µM
CC[C@@H](C)[C@H](C(=O)O)N1C[C@H](CN2CCC(c3cc(Cc4ccc(S(=O)(=O)c5ccccc5)cc4)nn3CC)CC2)[C@@H](c2cccc(F)c2)C1 ; strain: BaL ; cell line: HeLa ; read by: β-galactosidase ; setting: 50% human serum ; result: <0.033 µM
OCCN1CCN(CC/C=C2\c3ccccc3Sc3ccc(C(F)(F)F)cc32)CC1 ; strain: IIIB ; cell line: MOLT-3 ; read by: syncytia ; result: >10 µg/mL
N#CC[C@H](C1CCCC1)n1cc(-c2ncnc3[nH]ccc23)cn1 ; mutations: 4xAZT ; cell line: Primary T lymphocytes ; read by: p24 / ELISA ; result: 0.09 µM
CSc1ccn([C@H]2C[C@H](N=[N+]=[N-])[C@@H](CO)O2)c(=O)n1 ; strain: LAV-Bru ; cell line: CEM-C113 + CEM/C113 ; read by: RT activity ; result: 176 µM
C#C[C@]1(CO)O[C@@H](n2cnc3c(N)nc(F)nc32)C[C@@H]1O ; strain: Clinical isolate ; mutations: L74I/M184I ; cell line: MT4-GFP ; read by: fluorescence ; result: 0.00444 µM
CC[C@H](C)[C@H](C(=O)O)N1C[C@H](CN2CCC(c3cc(Cc4cccc(CN)c4)nn3CC)CC2)[C@@H](c2cccc(F)c2)C1 ; strain: BaL ; cell line: HeLa ; read by: β-galactosidase ; result: <0.0012 µM
CONc1nc(=O)n([C@H]2C[C@H](N=[N+]=[N-])[C@@H](CO)O2)cc1C ; strain: LAV-Bru ; cell line: CEM-C113 + CEM/C113 ; read by: RT activity ; result: 169 µM
COc1ccc(CN[C@@H](C(=O)N[C@H]2c3ccccc3C[C@H]2O)[C@H](O)[C@H](Cc2ccccc2)NC(=O)[C@@H](NC(=O)OCc2ccccc2)C(C)(C)C)cc1 ; strain: SF162 ; cell line: Primary monocytes + Monocyte ; read by: p24 ; result: 0.07 µM
CN1CC[C@H](c2ccccc2)[C@@H](COc2ccc3c(c2)OCCO3)C1 ; strain: IIIB ; cell line: MOLT-3 ; read by: syncytia ; result: >4 µg/mL
O=C(O)P(=O)(O)O ; strain: 8848 CLADE C CLADE C ; cell line: PBMC ; read by: p24 ; result: 17.3 µM
CNCCC=C1c2ccccc2CCc2ccccc21 ; strain: IIIB ; cell line: MOLT-3 ; read by: syncytia ; result: >5 µg/mL
Cc1ccnc2c1NC(=O)c1cccnc1N2C1CC1 ; strain: NNRTI-resistant (RT Y181C) ; mutations: RT-Y181C ; cell line: MAGI ; read by: β-galactosidase ; result: 10.3 µM

ECn is the concentration giving n% inhibition of infection, replication or growth.